# Source: article PMC5900025, “Naphthoquinone Derivatives as Scaffold to Develop New Drugs for Tuberculosis Treatment” (Frontiers in Microbiology, 2018)
# Test system: M. tuberculosis pan-susceptible H37Rv (ATCC 27294)
# Assay type: cell-based
# Settings: IC50 J774A.1 / MIC
row,Structure (SMILES),SI (IC50/MIC)
1,"CO[C@H]1/C=C/O[C@@]2(C)Oc3c(C)c(O)c4c(O)c(c(/C=N/N5CCN(C)CC5)c(O)c4c3C2=O)NC(=O)/C(C)=C\C=C\[C@H](C)[C@H](O)[C@@H](C)[C@@H](O)[C@@H](C)[C@H](OC(C)=O)[C@@H]1C [RIF, rifampicin, reference compound]",≥4094
2,"NC1=CC(=O)c2ccccc2C1=O [Compound 5, 2-Aminonaphthalene-1,4-dione]",≥16
3,"O=C1C=C(Nc2ccccc2)C(=O)c2ccccc21 [Compound 6, 2-(Phenylamino)naphthalene-1,4-dione]",≥8
4,"NNC(=O)c1ccncc1 [INH, isoniazid, reference compound]",8523
5,"CC1(C)CCC2=C(O1)C(=O)c1ccccc1C2=O [Compound 2, 2,2-Dimethyl-3,4-dihydro-2H-benzo[g]chromene-5, 10-dione]",2.8
6,"CC1(C)CC2=C(O1)C(=O)c1ccccc1C2=O [Compound 3, 2,2-Dimethyl-2,3-dihydronaphtho[2,3-b]furan-4,9-dione]",≥16
